From ChEMBL document CHEMBL3988442, “University of Dundee, Small-Polar-MMV Screening Library” (2021).

Each number is a percent effect as filed. How 0% and 100% were set is not recorded. Most values in the screen are low, and negative values occur. This is part of a subset picked to be rich in strong results.

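Phenotypic screen: M. tuberculosis growth, cholesterol and DPPC medium, 4 days; the read-out is not stated. Compounds at 500 µM. Direction is inferred from retests: higher values go with more growth inhibition. Size under these conditions: about 18,000 compounds, about 900 of them at 50% or above in at least one test.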

- CCN1CCN(C(=O)c2ccc(C)c(C)c2)CC1 | 50.36%
- O=C(CC1CCCC1)Nc1ccc2c(c1)NC(=O)CO2 | -14.47%
- Cc1cccc2[nH]cc(CO)c12 | 15%
- CN(Cc1cccnc1)C(=O)c1cc(Cl)c[nH]1 | 48.72%
- CN(C(=O)Cc1c[nH]c(=O)[nH]c1=O)C1CCSCC1 | -13.87%
- CCCNC(=O)CN(C)Cc1ccnc(N(C)C)n1 | 33%
- CN(c1ccc(C(=O)N2CCCCC2)cc1)S(C)(=O)=O | 11.49%
- O=S(=O)(NC1CCCNC1)c1cccc(F)c1 (stereo not given) | 14.81%
- CCNC(=O)N1CCC(NC(=O)c2cc(Cl)c[nH]2)C1 (stereo not given) | 0.523%
- Cc1nc[nH]c1C(=O)NCC1CCN(CC(C)C)C1 (stereo not given) | 4.923%
- CCNS(=O)(=O)C1CCN(Cc2csnn2)C1 (stereo not given) | 6.375%
- Oc1ncccc1F | -15.41%
- O=C(CSc1cnn[nH]1)Nc1ccncc1 | 7.139%
- CCC(NC(=O)c1cc(C)[nH]c(=O)c1)c1nc(C)c[nH]1 (stereo not given) | 4.817%
- CCCOc1ccc(CN2CCOC(CN)C2)cc1 (stereo not given) | -4.272%
- Clc1cnc(NCCNCc2cc[nH]n2)c(Cl)c1 | 53.71%
- CO[C@@H]1CCOC[C@H]1NC(=O)Cc1cnccn1 | -12.82%
- CCc1[nH]c(C(C)(N)CC)nc(=O)c1C (stereo not given) | 6.136%
- CC1(C)CCCN(C(=O)CCS(C)(=O)=O)CC1 | 35.31%
- NCCNS(=O)(=O)c1cccc(OC(F)(F)F)c1 | 14.65%
- COCCCNCc1cccc(OC)c1 | 9.566%
- NC1CCCc2occc21 (stereo not given) | 53.47%
- Cc1nc(C)c(C(=O)NCCS(=O)(=O)CC(C)C)s1 | -9.992%
- CC(C)OCCCNC(=O)c1ccc(S(N)(=O)=O)cc1 | 0.1337%
- COCCN(C)CCNC(=O)c1cc2ccccc2[nH]1 | 66.79%
- NS(=O)(=O)c1ncc[nH]1 | -7.086%
- CN(C(=O)C(N)CCS(C)(=O)=O)C1CCOCC1 (stereo not given) | 0.4131%
- CCCN(CCCN(C)C)C(=O)CCCOC | 15.6%
- c1cc(C2CCNCC2)n[nH]1 | -4.337%
- Cc1ccc2c(c1)nc(CN)n2C | 106.3%
- CN1C(=O)C(N)c2cc(Br)ccc21 (stereo not given) | -6.53%
- COC1CCN(CC(=O)N2CCCCC2)CC1 | 5.932%
- CCC(NC(=O)CCCN1CCCC1)c1cnn(C)c1 (stereo not given) | 4.097%
- CCCc1noc(CN2CCN(CC(O)CC)CC2)n1 (stereo not given) | 4.224%
- Cc1cnc(N2CCNCC2)s1 | 0.8037%
- CN(C)[C@@H]1CN(C(=O)C2CC=CC2)C[C@H]1CO | -23.01%
- O=C(CC1(O)CCCCC1)NCc1ncccc1F | 42.38%
- CCOc1cccc(CN2C(=O)CCC2=O)n1 | 14.85%
- CCOc1ccc2c(c1)cc(C(=O)NCCOC)n2C | -6.251%
- CCNC(=O)C(CCSC)NC(=O)Cc1ccccc1 (stereo not given) | -6.496%
- CC(C)CC(O)C1CCN(Cc2cccnc2N)CC1 (stereo not given) | 1.922%
- COc1cc(F)c(C(C)=O)cc1OC | -9.899%
- CC(C)CNc1cccc(-n2cnnn2)c1 | 63.17%

5 of the entries, repeated:

| SMILES | percent effect |
|---|---|
| `O=C(CC1CCCC1)Nc1ccc2c(c1)NC(=O)CO2` | -14.47% |
| `Cc1nc(C)c(C(=O)NCCS(=O)(=O)CC(C)C)s1` | -9.992% |
| `O=C(CC1(O)CCCCC1)NCc1ncccc1F` | 42.38% |
| `CC(C)CNc1cccc(-n2cnnn2)c1` | 63.17% |
| `CCOc1ccc2c(c1)cc(C(=O)NCCOC)n2C` | -6.251% |